Results taken from ChEMBL document CHEMBL3612042 (J Med Chem, 2015).

Biological target: T1, Biotin--[acetyl-CoA-carboxylase] ligase (Mycobacterium tuberculosis (strain ATCC 25618 / H37Rv)) (UniProt I6YFP0)
T1 sequence (whole entry): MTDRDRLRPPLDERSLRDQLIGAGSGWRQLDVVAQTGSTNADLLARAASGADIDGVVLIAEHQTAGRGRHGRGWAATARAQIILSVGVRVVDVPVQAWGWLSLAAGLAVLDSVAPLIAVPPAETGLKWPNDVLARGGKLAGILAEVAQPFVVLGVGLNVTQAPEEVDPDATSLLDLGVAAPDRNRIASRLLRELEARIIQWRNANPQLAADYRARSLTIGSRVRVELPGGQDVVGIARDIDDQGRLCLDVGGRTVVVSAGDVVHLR

Nc1ncnc2c1ncn2COCCNS(=O)(=O)NC(=O)CCCC[C@@H]1SC[C@@H]2NC(=O)N[C@@H]21
ΔTm: 14.7 °C
